Anti-infective test results gathered from many reports (values: NIAID ChemDB through PubChem).

Common to all: tests in culture; agent: Mycobacterium tuberculosis

Zone: diameter of growth inhibition. Inhibition is in % at the dose shown (toxicity tests: loss of growth or viability). An empty or dashed field is not shown. Neighbouring rows are from separate reports. A number after MIC or MFC names an inhibition level or a share of isolates. MIC bound comes from a single tested concentration. ECn is the concentration giving n% inhibition of infection, replication or growth.

compound	strain or isolate	method	setting	measure	dose	result
CN1CCN(Cc2ccc(NC/C=C/c3ccccc3)cc2)CC1	B905			MIC		>64 µg/mL
O=C(O)c1cc(=O)c2cccc(O)c2[nH]1	H37Rv	BACTEC		MIC bound		>12.5 µg/mL
N#Cc1ccnc(SCc2cccc(F)c2)c1	My 331/88			MIC		125 µM
CN1CCN(/N=C/c2cc(C(F)(F)F)nc3c(C(F)(F)F)cccc23)CC1				MIC		9 µM
CC(O)C1(O)C(O)CC(OC2c3cc4c(c(O)c3[C@@H]3C[C@@]2(C)OC32C=c3cc[nH]c3=N2)C(=O)c2cccc(O)c2C4=O)OC1C	CS-R			MIC		<0.1 µg/mL
C(=C\c1ccccc1)/CNc1ccc(Cn2ccnc2)cc1	B814			MIC		4 µg/mL
NC(=O)c1cnccn1	H6777 niacin-negative			MIC		32 µg/mL
CC1=C[C@@H]2c3cccc4[nH]cc(c34)C[C@H]2N(C)C1	H37Rv	BACTEC		MIC bound		>12.5 µg/mL
C(/C=C/c1ccccc1)=Nc1ccc(Cn2ccnc2)cc1	103471			MIC		16 µg/mL
Cc1n[nH]c(=S)n1/N=C/c1ccc(Cl)c(Cl)c1	H37Rv	agar diffusion / visual reading		zone	10000 µg/mL	12 mm
CN1CCN(c2ccc([N+](=O)[O-])c3no[n+]([O-])c23)CC1	H37Rv	resazurin		MIC bound		>6.25 µg/mL
N#Cc1ccnc(SCc2ccccc2F)c1	My 331/88			MIC		125 µM
CCOC(=O)CC(N)[C@H]1O[C@@H]2OC(C)(C)O[C@@H]2[C@H]1OC	H37Rv			MIC		>100 µg/mL
Cc1n[nH]c(=S)n1/N=C/c1cc(F)ccc1Cl	H37Rv	agar diffusion / visual reading		zone	10000 µg/mL	8.5 mm
C(=C\c1ccccc1)/CNc1ccc(CN2CCOCC2)cc1	103471			MIC		>64 µg/mL
CCOC(=O)CNC(=O)NN(c1ccccc1)C1CCS(=O)(=O)C1	H37Rv	BACTEC		MIC bound		>12.5 µg/mL
CC1(C)O[C@H]2O[C@H](C(N)CC(=O)O)[C@H](OCc3ccccc3)[C@H]2O1	H37Ra			MIC		>100 µg/mL
CN(C)CCNc1cc(C(F)(F)F)nc2c(C(F)(F)F)cccc12				MIC		94 µM
CO[C@@H]1[C@H]2OC(C)(C)O[C@H]2O[C@@H]1C(N)CC(=O)O	H37Rv			MIC		50 µg/mL
Oc1ccc(Cl)c2cccnc12	100 isolates (drug-sensitive)			MIC90		0.25 µg/mL
O=C(Oc1ccc(Cl)cc1C(=O)Nc1ccc(C(F)(F)F)cc1)c1ccccc1	9449/2006	broth dilution	21 d	MIC		0.5 µM
Cc1nc2c(=O)[nH][nH]c(=O)c2s1	H37Rv	BACTEC		MIC bound		>12.5 µg/mL
C(=C\c1ccccc1)/CNc1cccc(Cn2ccnc2)c1	6425			MIC		4 µg/mL
O=C(NC1CONC1=O)c1cccc(F)c1	H37Rv			MIC		>50 µg/mL
Cc1n[nH]c(=S)n1/N=C/c1ccc(Cl)cc1Cl	H37Rv	agar diffusion / visual reading		zone	10000 µg/mL	11.5 mm
CO[C@H]1/C=C/O[C@@]2(C)Oc3c(C)c(O)c4c(=O)c(c5oc6cc(N7CCN(CC(C)C)CC7)cc(=O)c6nc5c4c3=C2O)NC(=O)/C(C)=C\C=C\[C@H](C)[C@H](O)[C@@H](C)[C@@H](O)[C@@H](C)[C@H](OC(C)=O)[C@@H]1C	6 strains (rifampicin-resistant)			MIC50		≤0.0125 µg/mL
S=C(S)N1CCCC1	INH-r			MIC		0.2 µg/mL
NC(=S)c1ccnc(SCc2cccc(Br)c2)c1	My 331/88			MIC		31 µM
CCC(C)N1CCN(c2cc(=O)c3nc4c(oc3c2)c2c(=O)c3c(O)c(C)c5c(c34)=C(O)[C@@](C)(O/C=C/[C@H](OC)[C@@H](C)[C@@H](OC(C)=O)[C@H](C)[C@H](O)[C@H](C)[C@@H](O)[C@@H](C)/C=C/C=C(/C)C(=O)N2)O5)CC1	6 strains (rifampicin-resistant)			MIC90		0.025 µg/mL
O=C(Oc1cc(Cl)ccc1C(=O)Nc1ccc(C(F)(F)F)cc1)c1ccccc1	331/88 (H37Rv)	broth dilution	14 d	MIC		2 µM
CC(=O)Nc1ccc(/C=N/NC(N)=S)cc1	H37Ra			MIC		<0.01 µg/mL
CC(C)(C)C1=CC(=C2C(=O)C(=O)c3ccccc3C2=O)C=C(C(C)(C)C)C1=O	H37Rv	BACTEC		MIC		6.25 µg/mL
O=c1cc(-c2cccc(Cl)c2)oc2ccccc12	H37Rv			MIC		>12.5 µg/mL
O=C(O)c1ccccn1	H37Rv	resazurin / absorbance		MIC90		>406 µM
Nc1ccc(O)c(C(=O)/C=C/c2ccccc2)c1	H37Rv			MIC		>12.5 µg/mL
COC(=O)/C1=C/c2c([nH]c3ccc(Br)cc23)/C(C(=O)OC)=C\c2c1[nH]c1ccc(Br)cc21	H37Rv	resazurin / absorbance		EC50		1.98 µM
O=C(c1ccccc1)C(Nc1nc2nc(-c3ccccc3)c(-c3ccccc3)n2[nH]1)c1ccccc1	H37Rv	BACTEC		MIC bound		>12.5 µg/mL
NCC[C@H](O)C(=O)N[C@@H]1C[C@H](N)[C@@H](O[C@H]2O[C@H](CN)[C@@H](O)[C@H](O)[C@H]2O)[C@H](O)[C@H]1O[C@H]1O[C@H](CO)[C@@H](O)[C@H](N)[C@H]1O	H37Ra			MIC		2.5 µg/mL
Cc1ccc(NCC(=O)NN)cc1C	H37Rv	BACTEC		MIC		≥12.5 µg/mL
O=C(NC1CONC1=O)c1cccc(C(F)(F)F)c1	12PI			MIC		50 µg/mL
COC(=O)/C1=C/c2c([nH]c3ccccc23)/C(C(=O)OC)=C\c2c1[nH]c1ccccc21	H37Rv	resazurin / absorbance		EC50		0.24 µM
O=C(/C=C/c1cc2ccccc2c2ccccc12)c1cccc(O)c1	H37Rv			MIC		31.5 µg/mL
CCOC(=O)CC(NC(C)CCCC(C)C)[C@H]1O[C@@H]2OC(C)(C)O[C@@H]2[C@H]1OC	H37Ra			MIC		>25 µg/mL
COc1ccc(-c2cc(C(F)(F)F)nc3c(C(F)(F)F)cccc23)cc1				MIC		118 µM
COc1cccc2c1C(=O)c1c(O)c3c(c(O)c1C2=O)C[C@@](O)(/C(C)=N/NC(=O)c1ccc(Cl)c(Cl)c1)C[C@H]3O[C@H]1C[C@H](N)[C@H](O)[C@H](C)O1	CS-R			MIC		6.3 µg/mL
CC1COc2c(N3CCN(C)CC3)c(F)cc3c(=O)c(C(=O)O)cn1c23	H37Ra			MIC		1 µg/mL
O=c1oc(-c2ccc([N+](=O)[O-])cc2Cl)nc2ccccc12	H37Rv	BACTEC		inhibition	12.5 µg/mL	-4%
COc1ccc(/C=C/C(=O)c2cc(I)ccc2O)cc1	H37Rv			MIC		>12.5 µg/mL
O=C(Oc1cc(Cl)ccc1C(=O)Nc1ccc(Cl)cc1)c1ccccc1	331/88 (H37Rv)	broth dilution	21 d	MIC		4 µM
NC[C@H]1O[C@H](O[C@H]2[C@H](O)[C@@H](O[C@H]3O[C@H](CO)[C@@H](O)[C@H](N)[C@H]3O)[C@H](N)C[C@@H]2N)[C@H](O)[C@@H](O)[C@@H]1O	H37Ra			MIC		2.5 µg/mL
Cc1nccc2c(C)c3sc4ccccc4c3cc12	H37Rv	resazurin		MIC		1.56 µg/mL
FC(F)(F)c1cc(N2CCNCC2)c2cccc(C(F)(F)F)c2n1				MIC		59 µM
NC(=S)c1ccnc(SCc2c(F)cccc2[N+](=O)[O-])c1	My 331/88			MIC		31 µM
O=C(Oc1ccc(Br)cc1C(=O)Nc1ccc(C(F)(F)F)cc1)c1ccccc1	331/88 (H37Rv)	broth dilution	14 d	MIC		1 µM
COc1ccc(-c2oc3cc(F)ccc3c(=O)c2OC(C)=O)cc1	H37Rv			MIC		>12.5 µg/mL
COC(=O)N[C@@H]1[C@H](C)O[C@@H](OC2C/C=C(\C)[C@H]3C=C[C@H]4[C@H](OC5C[C@@H](OC6C[C@@H](O)[C@@H](OC7C[C@@H](O)[C@@H](OC)[C@H](C)O7)[C@H](C)O6)[C@@H](O)[C@H](C)O5)[C@H](C)C[C@@H](C)[C@@H]4[C@@]3(C)/C(O)=C3/C(=O)OC4(C[C@H](C)C(CO)=C[C@H]4/C=C\2C)C3=O)C[C@@]1(C)N	H37Ra	MTT		MIC90		1.3 µM
CC(C)(O)CC[C@@H](O)[C@](C)(O)[C@H]1CC[C@@]2(O)C3=CC(=O)[C@@H]4C[C@@H](O)[C@@H](O)C[C@]4(C)[C@H]3CC[C@]12C	H37Rv	BACTEC		inhibition	12.5 µg/mL	4%
CCCCCCCCCCCCNC(CC(=O)O)[C@H]1O[C@@H]2OC(C)(C)O[C@@H]2[C@H]1OC	H37Rv			MIC		50 µg/mL
Cc1cccc(C)c1NC(=O)C(=O)CC(=O)c1sc(Nc2c(C)cccc2C)nc1C	H37Rv	resazurin		MIC bound		>6.25 µg/mL
O=C(Oc1cc(Cl)ccc1C(=O)Nc1ccc(F)cc1)c1ccccc1	331/88 (H37Rv)	broth dilution	21 d	MIC		8 µM
CCOC(=O)C1=C(C(=O)c2ccccc2)C(c2ccc([N+](=O)[O-])cc2)C(C(=O)c2ccccc2)=C(C(=O)OCC)N1	H37Rv	BACTEC		inhibition	12.5 µg/mL	73%
C(=C\c1ccccc1)/CNc1ccccc1Cn1ccnc1	6425			MIC		4 µg/mL
Cc1n[nH]c(=S)n1/N=C/c1cc(F)c(F)c(F)c1	H37Rv	agar diffusion / visual reading		zone	10000 µg/mL	12.6 mm
O=C(/C=C/c1cccc(I)c1)c1ccccc1O	H37Rv			MIC		31.5 µg/mL
Cc1cccc(N2CC3CC4C=CC3(C2)O4)c1	H37Rv	BACTEC		inhibition	12.5 µg/mL	10%
CO[C@H]1/C=C/O[C@@]2(C)Oc3c(C)c(O)c4c(O)c(c(/C=N/N=C/N5CCCCC5)c(O)c4c3C2=O)NC(=O)/C(C)=C\C=C\[C@H](C)[C@H](O)[C@@H](C)[C@@H](O)[C@@H](C)[C@H](OC(C)=O)[C@@H]1C	7 strains			MIC		0.014 µg/mL
COc1ccc(-c2cc(=O)c3cc(C(=O)O)ccc3o2)cc1	H37Rv			inhibition	12.5 µg/mL	0%
CC(/C=C/c1ccco1)=N\NC(=O)c1ccncc1	H37Rv	BACTEC		inhibition	12.5 µg/mL	98%
NC(=O)c1cnccn1	H37Rv	agar diffusion / visual reading		zone	10000 µg/mL	30 mm
CCOc1ccc(-n2c(=O)n3c(Nc4ccc(Cl)cc4)nc4c(c(=O)n(C)c(=O)n4C)n3c2=O)cc1	H37Rv	BACTEC		inhibition	12.5 µg/mL	53%
COC(=O)N[C@@H]1[C@H](C)O[C@@H](OC2C/C=C(\C)[C@H]3C=C[C@H]4[C@H](OC5C[C@@H](O[C@@H]6C[C@@H](O)[C@@H](O)[C@H](C)O6)[C@@H](O)[C@H](C)O5)[C@H](C)C[C@@H](C)[C@@H]4[C@@]3(C)/C(O)=C3/C(=O)OC4(C[C@H](C)C(C)=C[C@H]4/C=C\2C)C3=O)C[C@@]1(C)[N+](=O)[O-]	H37Ra	MTT		MIC90		1.4 µM
CCOC(=O)CCNC(CC(=O)OCC)[C@H]1O[C@@H]2OC(C)(C)O[C@@H]2[C@H]1OCc1ccccc1	H37Ra			MIC		>25 µg/mL
O=c1cc(-c2ccccc2)oc2ccc(Cl)cc12	H37Rv			inhibition	12.5 µg/mL	30%
NC(=S)c1ccnc(SCc2ccc(Cl)cc2)c1	My 331/88			MIC		31 µM
CCOC(=O)CC(N)[C@H]1O[C@@H]2OC(C)(C)O[C@@H]2[C@H]1OCc1ccccc1	H37Ra			MIC		>25 µg/mL
NC(=S)c1ccnc(SCc2ccccc2Cl)c1	My 331/88			MIC		31 µM
CO[C@H]1/C=C/O[C@@]2(C)Oc3c(C)c(O)c4c(O)c(c(/C=N/N5CCN(C/C=C/c6ccccc6)CC5)c(O)c4c3C2=O)NC(=O)/C(C)=C\C=C\[C@H](C)[C@H](O)[C@@H](C)[C@@H](O)[C@@H](C)[C@H](OC(C)=O)[C@@H]1C	Kurono			MIC		0.2 µg/mL
CCCCCCCCCCCCNC(CC(=O)OCC)[C@H]1O[C@@H]2OC(C)(C)O[C@@H]2[C@H]1OC	H37Rv			MIC		50 µg/mL
COc1ccc(-n2c(CCCC(=O)O)nc3c2C(=O)c2ccccc2C3=O)cc1	H37Rv	BACTEC		MIC bound		>12.5 µg/mL
O=C(Oc1ccc(Cl)cc1C(=O)Nc1ccc(Cl)c(Cl)c1)c1ccccc1	Praha 131	broth dilution	14 d	MIC		0.5 µM